Source: ChEMBL document CHEMBL4425127 (J Med Chem, 2016)

Experiments:
[1] = system: Influenza A virus (A/Moscow/10/1999(H3N2)); test: Binding affinity to recombinant Influenza A virus (A/Moscow/10/99(H3N2)) Neuraminidase N2 expressed in baculovirus infected insect cells assessed as association rate constant measured up to 400 sec by surface plasmon resonance analysis
[2] = system: Influenza A virus (A/Moscow/10/1999(H3N2)); test: Binding affinity to recombinant Influenza A virus (A/Moscow/10/99(H3N2)) Neuraminidase N2 expressed in baculovirus infected insect cells assessed as dissociation rate constant measured up to 400 sec by surface plasmon resonance analysis

`CC(=O)N[C@H]1[C@H]([C@H](OC(=O)NCCOCCOCCOCCOCCOCCOCCOCCOCCOCCOCCOCCOCc2cn(CC(Cn3cc(COCCOCCOCCOCCOCCOCCOCCOCCOCCOCCOCCOCCNC(=O)O[C@@H]([C@@H]4OC(C(=O)O)=C[C@H](NC(=N)N)[C@H]4NC(C)=O)[C@H](O)CO)nn3)(Cn3cc(COCCOCCOCCOCCOCCOCCOCCOCCOCCOCCOCCOCCNC(=O)O[C@@H]([C@@H]4OC(C(=O)O)=C[C@H](NC(=N)N)[C@H]4NC(C)=O)[C@H](O)CO)nn3)Cn3cc(COCCOCCOCCOCCOCCOCCOCCOCCOCCOCCOCCOCCNC(=O)O[C@@H]([C@@H]4OC(C(=O)O)=C[C@H](NC(=N)N)[C@H]4NC(C)=O)[C@H](O)CO)nn3)nn2)[C@H](O)CO)OC(C(=O)O)=C[C@@H]1NC(=N)N` (stereo partly specified) showed a K [1] of 9.16 ×10⁴ /M/s and a K [2] of 4.2 ×10⁻⁷ /s.

Compound `CC(=O)N[C@H]1[C@H]([C@H](OC(=O)NCCOCCOCCOCc2cn(CC(Cn3cc(COCCOCCOCCNC(=O)O[C@@H]([C@@H]4OC(C(=O)O)=C[C@H](NC(=N)N)[C@H]4NC(C)=O)[C@H](O)CO)nn3)(Cn3cc(COCCOCCOCCNC(=O)O[C@@H]([C@@H]4OC(C(=O)O)=C[C@H](NC(=N)N)[C@H]4NC(C)=O)[C@H](O)CO)nn3)Cn3cc(COCCOCCOCCNC(=O)O[C@@H]([C@@H]4OC(C(=O)O)=C[C@H](NC(=N)N)[C@H]4NC(C)=O)[C@H](O)CO)nn3)nn2)[C@H](O)CO)OC(C(=O)O)=C[C@@H]1NC(=N)N` (stereo partly specified) has a K [1] of 14.7 ×10⁴ /M/s and a K [2] of 3.2 ×10⁻⁴ /s.

Work on `CC(=O)N[C@@H]1[C@H]([C@@H](OC(=O)NCCOCCOCCOCCOCCOCCOCc2cn(CC(Cn3cc(COCCOCCOCCOCCOCCOCCNC(=O)O[C@@H]([C@@H]4OC(C(=O)O)=C[C@H](NC(=N)N)[C@H]4NC(C)=O)[C@H](O)CO)nn3)(Cn3cc(COCCOCCOCCOCCOCCOCCNC(=O)O[C@@H]([C@@H]4OC(C(=O)O)=C[C@H](NC(=N)N)[C@H]4NC(C)=O)[C@H](O)CO)nn3)Cn3cc(COCCOCCOCCOCCOCCOCCNC(=O)O[C@@H]([C@@H]4OC(C(=O)O)=C[C@H](NC(=N)N)[C@H]4NC(C)=O)[C@H](O)CO)nn3)nn2)[C@H](O)CO)OC(C(=O)O)=C[C@@H]1NC(=N)N` (stereo partly specified) yielded a K [1] of 8.36 ×10⁴ /M/s and a K [2] of 1.3 ×10⁻⁴ /s.
